The record followed here is publication PMC9239237, “Salmonella Facilitates Iron Acquisition through UMPylation of Ferric Uptake Regulator” (mBio, 2022).

Construct, isoform or probe ends are uncertain for at least one entry. Negatives hold for the conditions tested. Tags and fusion partners may be left off the protein sequences shown.

For the series, the target named is T1, UMPylated Fur (Escherichia coli K-12 substrain MG1655) (UniProt P0A9A9).
T1 sequence (looked up, limits assumed): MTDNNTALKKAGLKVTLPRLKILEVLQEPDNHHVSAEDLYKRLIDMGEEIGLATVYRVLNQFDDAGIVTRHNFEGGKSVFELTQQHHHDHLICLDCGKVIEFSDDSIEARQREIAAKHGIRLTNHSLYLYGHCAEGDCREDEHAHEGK
Kind of series: EMSA. The note with it: no shift even at protein:DNA ratio above 4 (legend: up to 40 nmol protein to 10 nmol DNA), DNA annealed in 10 mM Tris-HCl pH 7.5, 150 mM NaCl, binding buffer not stated, 20 nM DNA, 37 C 10 min (Methods) vs 10 nmol DNA, 30 C 10 min (Fig. 4 legend), recombinant protein, protein details: His tag removed with PPase (pGL01).

In the case of “GATAATGATAATGATAATGATAATGATAATGA (double strand) [Fur box DNA]”, the binding result is listed as “no binding”.
